Assay results taken from PMC12164071, “Lysine targeting covalent inhibitors of malarial kinase PfCLK3” (RSC Medicinal Chemistry, 2025).

How the values were obtained:
[1] = test system: 3D7 Plasmodium falciparum parasites; assay: Ex vivo P. falciparum (3D7) inhibition assay; format: cell-based; conditions: Pf3D7 parasites, 72 hours, errors SD, N ≥ 3
[2] = test system: HepG2 cells; assay: Human cell viability assay (resazurin); conditions: HepG2, 48 hours, errors SD, N ≥ 3

## CCN(CC)Cc1ccc(OC)c(-c2cnc3[nH]cc(-c4ccc(C(=O)O)c(C(C)C)c4)c3c2)c1
[1]
  pEC50 (3D7): 6.47± 0.09
[1]; read-out: EC50 (3D7)
  EC50: 343 nM
[2]
  pCC50 (HepG2): < 4.3
[2]; read-out: CC50 (HepG2)
  CC50: > 50 µM
